Assay results: patent US11236378B2 (priority 2015, dated 2022)

Key:
[1] = test system: C57BL/6 mice; assay: Toxicity of PAO oral gavage on mice
[2] = test system: Aβarc flies; assay: Longevity (lifespan) assay of flies fed PAO; conditions: Aβarc flies fed with PAO (25, 50, 100, 150 μM in food)
[3] = test system: dissected Drosophila third instar larvae; assay: Toxicity of PAO on dissected third instar larvae; conditions: Schneider's medium, 25° C. overnight
[4] = test system: wild type flies; assay: Toxicity of PAO on living flies (fly food from embryonic stage)

O=[As]c1ccccc1 (stereo not shown)
survival after gavage ([1]; 2.0 mg/kg body weight once a day Monday through Friday, two consecutive weeks): all five mice survived
survival after gavage ([1]; 4.5 mg/kg body weight once a day for five consecutive days): four mice out of five survived
mortality after gavage ([1]; 18, 10 and 6 mg/kg body weight, two mice per dose, second day): All mice were found dead
Aβarc induced defect in lifespan (premature death) [2]: significantly ameliorated these defects in a dose-dependent manner
PAO concentration at which salivary gland cells and CNS neurons turned white, reflecting damage [3]: ≥ 300 nM
PAO concentration with no such effect (no damage) [3]: ≤ 150 nM
PAO concentration in fly food that neither changed the eclosion rate nor altered the climbing ability [4]: ≤ 200 µM
